Entries after “also recorded” stand apart in the source; their conditions may differ.
Test system: C. albicans (strain SC-5134)
Assay: Confocal microscopy of Pc 4 uptake and localization
Assay type: cell-based, Candida albicans
Conditions: C. albicans loaded with Pc 4, confocal fluorescence

CN(C)CCC[Si](C)(C)O[Si]1(O)n2c3c4ccccc4c2N=C2N=C(N=c4c5ccccc5c(n41)=NC1=NC(=N3)c3ccccc31)c1ccccc12 (stereo not shown) [Pc 4, HOSiPcOSi(CH3)2(CH2)3N(CH3)2]
uptake and subcellular localization: able to penetrate the cell membrane of C. albicans and can be seen within the cytosol; also recorded: detected in the cytoplasmic compartment but not in the cell wall, plasma membrane or nucleus

Source: US20120265121A1, “PHTHALOCYANINE-BASED ANTIFUNGAL AGENTS” (CASE WESTERN RESERVE UNIVERSITY, priority 2011, published 2012)
